For this assay, the target named is RTA (Ricinus communis, UniProt P02879).

This note sets out measurements from PMC11012547, “Identification and Biological Evaluation of a Novel Small-Molecule Inhibitor of Ricin Toxin” (2024).

Broadly, the Kd is the concentration at which binding is half-saturated. High values mean lower affinity, low ones higher affinity.

Consider `CCN(CC)S(=O)(=O)c1cccc(NN=C2C(=O)NC(=O)NC2=O)c1`, for which the dissociation constant Kd stood at 0.923 µM.
The value for `Nc1nc2ncc(CNc3ccc(C(=O)O)cc3)nc2c(=O)[nH]1` was 8.68 µM.
